Anti-infective test results gathered from many reports (values: NIAID ChemDB through PubChem).

All rows: whole-cell or culture tests; species: Aspergillus flavus; measure: MIC

a–b is a range or a potency band. Blank or dashed fields: not listed here. Neighbouring rows are from separate reports.

smiles | strain or isolate | read by | value
[Al]#[P] |  | agar | 3.5 µg/mL
COc1cccc(C=O)c1OC | NRRL3357 | agar | 3000 µM
C[C@@H]1[C@H](O)[C@@H](C)/C=C/C=C/CC/C=C/C=C/C=C/C=C/[C@H](O[C@@H]2O[C@H](C)[C@@H](O)[C@H](N)[C@@H]2O)C[C@@H]2O[C@](O)(C[C@@H](O)[C@H](O)CC[C@@H](O)C[C@@H](O)C[C@@H](O)CC(=O)O[C@H]1C)C[C@H](O)[C@H]2C(=O)O |  |  | 0.75 µg/mL
CCCCCOc1ccc(-c2cc(-c3ccc(C(=O)N[C@H]4C[C@@H](O)[C@@H](O)NC(=O)[C@@H]5[C@@H](O)[C@@H](C)CN5C(=O)[C@H]([C@H](O)CC(N)=O)NC(=O)[C@H]([C@H](O)[C@@H](O)c5ccc(O)c(OS(=O)(=O)O)c5)NC(=O)[C@@H]5C[C@@H](O)CN5C(=O)[C@H]([C@@H](C)O)NC4=O)cc3)no2)cc1 |  |  | 0.015–8 µg/mL
O=C1c2cc(CO)cc(O)c2C(=O)c2cc(O)cc(O)c21 |  | broth dilution | 31.25 µg/mL
CC1(C)c2nn[se]c2C(c2ccc(Cl)cc2)NC1c1ccc(Cl)cc1 |  | agar diffusion | 25 µg/mL
C[C@H]1[C@H](O)[C@@H](C)/C=C/C=C/C=C/C=C/C=C/C=C/C=C/[C@H](O[C@@H]2O[C@H](C)[C@@H](O)[C@H](N)[C@@H]2O)C[C@@H]2O[C@](O)(C[C@@H](O)C[C@@H](O)CC[C@H](O)[C@@H](O)C[C@@H](O)CC(=O)O[C@H]1C)C[C@H](O)[C@H]2C(=O)O |  | broth dilution | >17.4 µM
O=C1C(=O)c2ccccc2-c2ccccc21 |  | visual reading | 40 µg/mL
COc1ccc(Cn2nc(C3CC3)cc2NC(=O)c2ccc(F)cc2F)cc1 |  |  | 11 µg/mL
CC(C)=CCOc1ccc2c(c1C)C(=O)c1ccccc1C2=O | Standard strain | broth dilution | 62.5 µg/mL
Cc1ccc(NC(=O)CN(C)CC(O)Cn2c(=O)c3ccccc3n(C)c2=O)cc1 |  | agar diffusion | 16 µg/mL
O=C/C=C/c1ccccc1 | NRRL 501 | broth dilution | 80 µg/mL
CCCCCOc1ccc(-c2ccc(-c3ccc(C(=O)N[C@H]4C[C@@H](O)[C@@H](O)NC(=O)[C@@H]5[C@@H](O)[C@@H](C)CN5C(=O)[C@H]([C@H](C)O)NC(=O)[C@H]([C@H](O)[C@@H](O)c5ccc(O)cc5)NC(=O)[C@@H]5C[C@@H](O)CN5C(=O)[C@H]([C@H](C)O)NC4=O)cc3)cc2)cc1 |  |  | 0.015–8 µg/mL
COc1ccc(Cn2nc(C3CC3)cc2NC(=O)c2cc([N+](=O)[O-])cc([N+](=O)[O-])c2)cc1 |  |  | 42 µg/mL
C[C@@H](c1ncncc1F)[C@](O)(Cn1cncn1)c1ccc(F)cc1F |  |  | 0.125–4 µg/mL
C[C@@H]1[C@H](O)[C@@H](C)/C=C/C=C/CC/C=C/C=C/C=C/C=C/C(O[C@H]2O[C@H](C)[C@@H](O)[C@H](N)[C@@H]2O)CC2O[C@](O)(CC(O)C(O)CCC(O)CC(O)CC(O)CC(=O)O[C@H]1C)CC(O)C2C(=O)O |  |  | 8 µM
COc1ccc(Cn2nc(C3CC3)cc2NC(=O)c2cccc(C(C)(C)C)c2)cc1 |  |  | 41 µg/mL
Nc1[nH]c(=O)ncc1F |  |  | 2–64 µg/mL
Clc1ccc([Se][Se]c2ccc(Cl)cc2)cc1 |  | broth dilution | >64 µg/mL
COc1cc2oc(=O)ccc2cc1CC(O)C(C)(C)O |  |  | 15.6 µg/mL
COc1cc(O)c2c(=O)c(OC)c(-c3ccc(OC4O[C@H](CO)[C@@H](O)[C@H](O)[C@H]4O)cc3)oc2c1 |  |  | 320 µg/mL
CCC(C)n1ncn(-c2ccc(N3CCN(c4ccc(OC[C@H]5CO[C@](Cn6cncn6)(c6ccc(Cl)cc6Cl)O5)cc4)CC3)cc2)c1=O |  | agar diffusion | 8 µg/mL
c1ccc([Se][Se]c2ccccc2)cc1 |  | broth dilution | 16–64 µg/mL
C[C@H]1[C@H](O)[C@@H](C)/C=C/C=C/C=C/C=C/C=C/C=C/C=C/[C@H](O[C@@H]2O[C@H](C)[C@@H](O)[C@H](N)[C@@H]2O)C[C@@H]2O[C@](O)(C[C@@H](O)C[C@@H](O)CC[C@H](O)[C@@H](O)C[C@@H](O)CC(=O)O[C@H]1C)C[C@H](O)[C@H]2C(=O)O | ITCC 4517 | broth dilution | 1.95 µg/mL
O=C/C=C/c1ccccc1 | NRRL 501 | broth dilution | 80 µg/mL
COc1ccccc1C=O | NRRL3357 | agar | 2500 µM
C[C@@H]1[C@H](O)[C@@H](C)/C=C/C=C/CC/C=C/C=C/C=C/C=C/C(O[C@H]2O[C@H](C)[C@@H](O)[C@H](N)[C@@H]2O)CC2O[C@](O)(CC(O)C(O)CCC(O)CC(O)CC(O)CC(=O)O[C@H]1C)CC(O)C2C(=O)O |  |  | 37 µg/mL

For reference, 3 entries again:

smiles,strain or isolate,read by,value
C[C@@H]1[C@H](O)[C@@H](C)/C=C/C=C/CC/C=C/C=C/C=C/C=C/[C@H](O[C@@H]2O[C@H](C)[C@@H](O)[C@H](N)[C@@H]2O)C[C@@H]2O[C@](O)(C[C@@H](O)[C@H](O)CC[C@@H](O)C[C@@H](O)C[C@@H](O)CC(=O)O[C@H]1C)C[C@H](O)[C@H]2C(=O)O,,,0.75 µg/mL
C[C@H]1[C@H](O)[C@@H](C)/C=C/C=C/C=C/C=C/C=C/C=C/C=C/[C@H](O[C@@H]2O[C@H](C)[C@@H](O)[C@H](N)[C@@H]2O)C[C@@H]2O[C@](O)(C[C@@H](O)C[C@@H](O)CC[C@H](O)[C@@H](O)C[C@@H](O)CC(=O)O[C@H]1C)C[C@H](O)[C@H]2C(=O)O,ITCC 4517,broth dilution,1.95 µg/mL
COc1ccc(Cn2nc(C3CC3)cc2NC(=O)c2ccc(F)cc2F)cc1,,,11 µg/mL